Inhibition data for two molecules are collected here from PubChem BioAssay AID624413 (The Scripps Research Institute Molecular Screening Center, 2012).

In general, inhibition refers to the share of the control response that was lost under treatment.

SMILES strings stand for the structures. The list shows a part of the results, in another mix than the full data. Active and inactive are the calls of the source. No stated cut-off is given here; in the data, active means inhibition above about 15%; inactive means the rest.

The nature of the experiment: viability loss in Jurkat lymphocytes – cell-based, luminescence, high throughput, cytotoxicity control for T. brucei MetRS inhibitor project (AID 624413).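 Further: 0% = vehicle and 100% = reference inhibitor.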 As to conditions: Jurkat cells viability, ATP luminescence; at 8.3 µM; stronger effect = higher value.
As for `CCC1=CC2Cc3nc4ccc(Cl)cc4c(N)c3C(C1)C2` (configuration not stated), the inhibition is active: 54.7%. As for `O=P(Nc1nc2ccc(Cl)cc2s1)(c1ccccc1)c1ccccc1`, the inhibition is inactive: 1.29%.
